Laboratory results taken from patent publication US20210309984.

B1: ChiA C-domain (ChiA-CTD: residues 419-762), wild-type (protein)
chain: VTAAKGRIIGYVPGWKTPPAAQELASAGYTHVMIAFGVFSTNTPGVIVPAFETITKEYIQSLHQAGIKVILSLGGALTSIPNTTVDFHQVLVASSSPEAFKQTFINSLKELISQYGFDGFDTDIEHGINASGSFSQPQGDIAVLASIINTMYSQNSSLLITLTPQVANIAATSGFDQTWGNYASLIMQTHQSLAWVGIQLYNTGCAFGIDQVCYGPTPTDTPDFSVAMATDLLENWPATVNGRPTGFQPYISYLRPSQIVIGYPSPNASGGSDGSPVTPTTTIKRAIQCLKTAIAGNTSCGVYVPPRAYGNIGGVFNWEVTYDKNNQFKFAKELKNCAINGVCE
B2: Full-length ChiA minus the N-terminal periplasmic signal sequence (ChiA-FL), Legionella pneumophila 130b (protein)
chain: NTSLKPSIAQPTACVNSLFTATGNQHWKSIVLKLTNNCNQAVDFQNSTVSFQTTAALNTSFWGDFSPLSYPDNALNISSQPQSGGNYLATLNLHFPSYPGANSKLPVGSSISIKYGAVTDSHIEGTANVYLSTTVESGSIQLINAAAKPTNVSQGYALVHVTMNGQSVSDVQLPWETSKTLSGFAAGNYAISAETVTDSNGNLYLGQANPSMVNVIANQTTSSTINYARVQETGKIKIHVQNLPGELSNYNENPTVLITQSQSGNSRSQHAVWGNTTTVAELKEGSSYQFSTPAIQYNDYNCWPTFTPSSLVASAANVPTTNLTYQCAQIVKDNVTINVSGAPSSLASLKIILTPNDGSQTVEQTIDLANGVGSSAISLTDGVIYTLSSEGVPGYTVQFSPQPLTATENATVNITLSPVTAAKGRIIGYVPGWKTPPAAQELASAGYTHVMIAFGVFSTNTPGVIVPAFETITKEYIQSLHQAGIKVILSLGGALTSIPNTTVDFHQVLVASSSPEAFKQTFINSLKELISQYGFDGFDTDIEHGINASGSFSQPQGDIAVLASIINTMYSQNSSLLITLTPQVANIAATSGFDQTWGNYASLIMQTHQSLAWVGIQLYNTGCAFGIDQVCYGPTPTDTPDFSVAMATDLLENWPATVNGRPTGFQPYISYLRPSQIVIGYPSPNASGGSDGSPVTPTTTIKRAIQCLKTAIAGNTSCGVYVPPRAYGNIGGVFNWEVTYDKNNQFKFAKELKNCAINGVCE

Biological target: MUC5AC within type II porcine stomach mucin extract

Protein | immunoblot of MUC5AC degradation in type II mucin extract
B1 | resulted in the processing of MUC5AC into a new ˜70 kDa fragment
B2 | resulted in the processing of MUC5AC into a new ˜70 kDa fragment
